According to patent publication US20080227128A1, “Resonance Energy Transfer System and Method” (Mount Sinai School of Medicine of New York University, priority 2004, published 2008):

System: L1-BRET construct
Assay: BRET assay, L1-BRET construct transfected in HEK-293 cells
Assay type: cell-based, Human
Conditions: n=5

For O=[As]c1ccccc1 (stereo not shown), the “effect on the BRET ratio of the L1-BRET construct” value was “significant decrease in the BRET ratio”.
